Pooled drug test results. Numbers come from NIAID ChemDB, via PubChem.

Shared fields: tests in culture; species: Mycobacterium avium; read-out: MIC

Rows are shuffled and stem from different studies.

Cc1ccc2nc(SCc3c(F)cccc3Cl)[nH]c2c1 ; strain: MY330/88 ; result: 16 µM
CCCOc1ccccc1NC(=O)OCCN1CCCCC1 ; strain: MY330/88 ; result: 1000 µM
Cc1ccc2nc(SCc3cccc(C#N)c3)[nH]c2c1 ; strain: MY330/88 ; result: 125 µM
Cc1ccc2c(=O)n(-c3ccccc3)c(=O)oc2c1 ; strain: CNCTC MY330/88 ; result: 62 µM
Cn1cnnc1SCc1ccc([N+](=O)[O-])cc1[N+](=O)[O-] ; strain: MY330/88 ; result: >1000 µM
Cc1ccc2c(=O)n(-c3ccc(C#N)cc3)c(=O)oc2c1 ; strain: CNCTC MY330/88 ; result: 16 µM
Cc1ccc2nc(SCc3ccccc3[N+](=O)[O-])[nH]c2c1 ; strain: MY330/88 ; result: 62 µM
O=[N+]([O-])c1cccc(CSc2ncn[nH]2)c1 ; strain: MY330/88 ; result: 500 µM
COc1cccc(NC(=O)OCCN2CCOCC2)c1 ; strain: MY330/88 ; result: 1000 µM
S=c1nc[nH][nH]1 ; strain: MY330/88 ; result: 1000 µM
Clc1ccc2c(c1)nc1cc(Nc3ccccc3)c(=NC3CCCCC3)cc-1n2-c1ccccc1 ; strain: 6193 ; result: 3.3 µg/mL
COc1ccccc1NC(=O)OCCN1CCCCC1 ; strain: MY330/88 ; result: 500 µM
Cc1ccc(-n2c(=O)oc3ccc(Cl)cc3c2=O)cc1 ; strain: CNCTC MY330/88 ; result: 16 µM
NC(=S)c1ccc(CSc2ncn[nH]2)cc1 ; strain: MY330/88 ; result: 250 µM
Cc1ccc2nc(SCc3cccc(C(F)(F)F)c3)[nH]c2c1 ; strain: MY330/88 ; result: 62 µM
CCc1cc(C(N)=S)ccn1 ; strain: 3350-4 ; result: 5 µg/mL
CCOc1ccc(NC(=O)OCCN(C)C)cc1 ; strain: MY330/88 ; result: 1000 µM
O=c1oc2ccc([N+](=O)[O-])cc2c(=O)n1-c1cccc([N+](=O)[O-])c1 ; strain: CNCTC MY330/88 ; result: 250 µM
CCCCOc1ccccc1NC(=O)OCCN1CCOCC1 ; strain: MY330/88 ; result: 250 µM
Cc1cccc(C(N)=Nc2nc(-c3ccccn3)cc3ccccc23)c1 ; strain: 5718 ; result: 2 µg/mL
O=[N+]([O-])c1ccc(CSc2ncn[nH]2)cc1 ; strain: MY330/88 ; result: 500 µM
COc1cccc(NC(=O)OCC[NH+]2CCCC2)c1 ; strain: MY330/88 ; result: >1000 µM

The last 3 rows once more:

smiles | strain | result
Cc1cccc(C(N)=Nc2nc(-c3ccccn3)cc3ccccc23)c1 | 5718 | 2 µg/mL
O=[N+]([O-])c1ccc(CSc2ncn[nH]2)cc1 | MY330/88 | 500 µM
COc1cccc(NC(=O)OCC[NH+]2CCCC2)c1 | MY330/88 | >1000 µM